Data on seven molecules can be found in patent US20240059757A1 (VIR BIOTECHNOLOGY, published 2024).

“And” between values parts separate entries of the source, which are not always exact repeats. Equal entries are not always repeated.

Assay [1] addresses T1, SC2018 spike RBD (SC2018).
T1 construct: domain: RBD
The experiment in a line: BLI. (In general: Biolayer interferometry detects binding as a change in optical thickness at a sensor tip.)

In assay [2] the target is T2, BGR2008 spike protein RBD (BGR2008).
T2 construct: domain: RBD
Description: BLI.

Another assay concerns the target T3, SARS-CoV-2 B.1.1.222 RBD (SARS-CoV-2 B.1.1.222).
T3 construct: domain: RBD
Description: ELISA.

Assay [3] has as its target T1, SC2018 spike RBD. Description: BLI; *no optimal fitting.

B1: S2X259 variant antibody, VH SEQ ID NO 408 / VL SEQ ID NO 442 (antibody, V domains shown)
VH: QVQLVQSGAEVKKPGSSVKVSCKASGGIFNTYTISWVRQAPGQGLEWMGRIILMSGMANYAQKIQGRVTITADKSTSTAYMELTSLRSDDTAVYYCARGFNGNYYGWGDDDAFDISGQGTLVTVYS
VL: QTVLTQPPSVSGAPGQRVTISCTGSNSNIGAGYDVHWYQQLPGTAPKLLISGNSNRPSGVPDRFSGSKSGTSASLAITGLQAEDEADYYCQSYDSSLSGPNWVFGGGTKLTVL
The term Kd denotes a measure of binding affinity in units of concentration. Read a high Kd as a looser complex. B1: the Kd with SC2018 spike RBD [1] was found to be 5.55 nM; in assay [2] it was 0.522 nM.

B2: S2X259 variant antibody, VH SEQ ID NO 458 / VL SEQ ID NO 445 (antibody, V domains shown)
VH: QVQLVQSGAEVKKPGSSVKVSCKASGGIFNTYTISWVRQAPGQGLEWMGRIILMSGMANYAQKIQGRVTITADKSTSTAYMELTSLRSDDTAVYYCARGFNGNYYGWGDDDAFDIWGQGTLVTVSS
VL: QTVLTQPPSVSGAPGQRVTISCTGSNSNIGAGYDVHWYQQLPGTAPKLLIVGNSNRPSGVPDRFSGSKSGTSASLAITGLQAEDEADYYCQSYDSSLSGPNWVFGGGTKLTVL
For orientation: IC50 means the concentration needed to halve the response being measured. A higher IC50 goes with weaker potency in that assay. For B2, the concentration for half-maximal inhibition (IC50) in the assay with SARS-CoV-2 B.1.1.222 RBD is ≥ 0.05 µg/mL and ≤ 0.1 µg/mL.

B3: S2X259 variant antibody, VH SEQ ID NO 408 / VL SEQ ID NO 444 (antibody, V domains shown)
VH: QVQLVQSGAEVKKPGSSVKVSCKASGGIFNTYTISWVRQAPGQGLEWMGRIILMSGMANYAQKIQGRVTITADKSTSTAYMELTSLRSDDTAVYYCARGFNGNYYGWGDDDAFDISGQGTLVTVYS
VL: QTVLTQPPSVSGAPGQRVTISCTGSNSNIGAGYDVHWYQQLPGTAPKLLIYGNSNRPSGVPDRFSGSKSGTSASLAITGLQAEDEADYYCQSYDSSLSGPNWVFGGGTKLTVL
B3: the Kd in the assay with SC2018 spike RBD [3] was determined as 6 nM; in assay [2], 1.96 nM.

B4: S2X259 variant antibody, VH SEQ ID NO 446 / VL SEQ ID NO 412 (antibody, V domains shown)
VH: QVQLVQSGAEVKKPGSSVKVSCKASGGIFNTYTISWVRQAPGQGLEWMGRIILISGIANYAQKIQGRVTITADKSTSTAYMELTSLRSDDTAVYYCARGFNGNYYGWGDDDAFDISGQGTLVTVYS
VL: QTVLTQPPSVSGAPGQRVTISCTGSNSNIGAGYDVHWYQQLPGTAPKLLICGNSNRPSGVPDRFSGSKSGTSASLAITGLQAEDEADYYCQSYDSSLSGPNWVFGGGTKLTVL
In the case of B4, the dissociation constant (Kd) in the assay with SC2018 spike RBD [3] turned out to be 1.2 nM; in assay [2] it was 4.95 nM.

B5: S2X259 variant antibody, VH SEQ ID NO 459 / VL SEQ ID NO 445 (antibody, V domains shown)
VH: QVQLVQSGAEVKKPGSSVKVSCKASGGIFNTYTISWVRQAPGQGLEWMGRIILMSGKANYAQKIQGRVTITADKSTSTAYMELTSLRSDDTAVYYCARGFNGNYYGWGDDDAFDIWGQGTLVTVSS
VL: QTVLTQPPSVSGAPGQRVTISCTGSNSNIGAGYDVHWYQQLPGTAPKLLIVGNSNRPSGVPDRFSGSKSGTSASLAITGLQAEDEADYYCQSYDSSLSGPNWVFGGGTKLTVL
As to B5, the IC50 in the assay with SARS-CoV-2 B.1.1.222 RBD is ≥ 0.05 µg/mL and ≤ 0.1 µg/mL.

B6: S2X259 variant antibody, VH SEQ ID NO 408 / VL SEQ ID NO 445 (antibody, V domains shown)
VH: QVQLVQSGAEVKKPGSSVKVSCKASGGIFNTYTISWVRQAPGQGLEWMGRIILMSGMANYAQKIQGRVTITADKSTSTAYMELTSLRSDDTAVYYCARGFNGNYYGWGDDDAFDISGQGTLVTVYS
VL: QTVLTQPPSVSGAPGQRVTISCTGSNSNIGAGYDVHWYQQLPGTAPKLLIVGNSNRPSGVPDRFSGSKSGTSASLAITGLQAEDEADYYCQSYDSSLSGPNWVFGGGTKLTVL
As for B6, the Kd with SC2018 spike RBD [1] was found to be 8.36 nM; in assay [2], 0.859 nM.

B7: S2X259 variant antibody, VH SEQ ID NO 408 / VL SEQ ID NO 443 (antibody, V domains shown)
VH: QVQLVQSGAEVKKPGSSVKVSCKASGGIFNTYTISWVRQAPGQGLEWMGRIILMSGMANYAQKIQGRVTITADKSTSTAYMELTSLRSDDTAVYYCARGFNGNYYGWGDDDAFDISGQGTLVTVYS
VL: QTVLTQPPSVSGAPGQRVTISCTGSNSNIGAGYDVHWYQQLPGTAPKLLIAGNSNRPSGVPDRFSGSKSGTSASLAITGLQAEDEADYYCQSYDSSLSGPNWVFGGGTKLTVL
Consider B7, for which the Kd was 7.94 nM with SC2018 spike RBD [1] and 0.735 nM in assay [2].
